Compound potency records, mixed from different reports. Data source: NIAID ChemDB in PubChem.

Common to all: tests in culture; organism: Mycobacterium tuberculosis

Percent inhibition refers to the dose given; in toxicity tests it is the harm to the cells.

compound,method,changes,cell line,strain or isolate,tested at,measure,conditions,value
NS(=O)(=O)N1CCN(c2ccc(N3C[C@H](O)OC3=O)cc2F)C=N1,GFP / reporter gene,,,H37Rv,,MIC,,1000 µg/mL
NNC(=O)c1cccs1,BACTEC,,,H37Rv,12.5 µg/mL,inhibition,,16%
O=C(CNc1ccccc1[N+](=O)[O-])Sc1nnc(-c2ccncc2)o1,BACTEC / radiometric,,,H37Rv (ATCC 27294),0.0077 µM,inhibition,,92%
CC1(C)O[C@H]2OC(COCC(O)CNCCCCCCCCNC(O)COCC3O[C@@H]4OC(C)(C)O[C@@H]4[C@H]4OC(C)(C)O[C@@H]34)[C@@H]3OC(C)(C)O[C@@H]3[C@H]2O1,,,,H37Rv,,MIC,,>50 µg/mL
O=C(O)c1cn(-c2ccc(F)cc2F)c2cc(Nc3ccc(F)cc3F)c([N+](=O)[O-])cc2c1=O,,,,ATCC 27294 (WT),,MIC50,,>200 µM
CCCN1CN(C(C(=O)NC2C(=O)N3C2SC(C)(C)C3C(=O)O)c2ccc(O)cc2)CSC1=S,BACTEC,,,H37Rv,12.5 µg/mL,inhibition,,10%
O=C(O)c1c2n(c3cc(N4CCC(N5CCCCC5)CC4)c(F)cc3c1=O)CS2,agar,,,H37Rv,,MIC,,7.49 µM
C[C@H]1COc2c(N3CCN(C)CC3)c(F)cc3c(=O)c(C(=O)O)cn1c23,,,,82 strains,,MIC90,,1 µg/mL
C[C@@H]1CN(c2c(F)c(N)c3c(=O)c(C(=O)O)cn(C4CC4)c3c2F)C[C@H](C)N1,,,,18 isolates,,MIC50,,0.25 µg/mL
O=C(CNc1cccc(Cl)c1)Sc1nnc(-c2ccncc2)o1,BACTEC / radiometric,,,H37Rv (ATCC 27294),0.1706 µM,inhibition,,32%
CC(Nc1ccc2ccccc2c1)C(=O)NN,,,,H37Rv,1 µg/mL,inhibition,,100%
CC(=O)C(CC(=O)Nc1ccccc1)C(=O)Nc1cccc2ccccc12,,,,H37Rv,30 µg/mL,inhibition,,0%
O=C1NC(=NCc2ccccc2)N/C1=C\c1ccc(Cl)cc1,resazurin,,VERO,H37Rv,,MIC,,>12.5 µg/mL
COc1c2ccoc2cc2oc(=O)ccc12,resazurin,,,H37Ra,,EC50,,27 µg/mL
CCc1nc2ccc(Cl)cn2c1C(=O)NCc1ccc(N2CCC(c3ccc(OC(F)(F)F)cc3)CC2)cc1,turbidity,,,N0157,,MIC50,,0.0024 µM
O=C1NC(NNC(=O)c2ccncc2)=N/C1=C\c1cccc(Cl)c1,,,,ATCC 35822 (isoniazid-resistant),,MIC,,25 µg/mL
COc1ccc(CC2C3=C(CCCC3)CCN2c2cc3c(cc2[N+](=O)[O-])c(=O)c(C(=O)O)c2n3CS2)cc1,agar,,,H37Rv,,MIC,,5.87 µM
O=C(O)c1cn(C2CCC2)c2cc(NC3CCC3)c(F)cc2c1=O,,,,ATCC 27294 (WT),,MIC50,,>200 µM
COc1cc(C[C@@H](C)[C@@H](C)Cc2ccc(O)c(OC)c2)ccc1O,resazurin,,,H37Rv,,MIC,,50 µg/mL
CC1COc2c(N3CCN(C(N)=NC#N)CC3)c(F)cc3c(=O)c(C(=O)O)cn1c23,broth dilution,,,ATCC 35822,,MIC,,0.625 µg/mL
COc1c(OC)c2occc2c2oc(=O)ccc12,resazurin,,,H37Ra,,MIC90,,200 µg/mL
CCc1n[nH]c(=O)n1NC(=O)/C=C\C(=O)O,resazurin,,,H37Rv,,MIC bound,,>6.25 µg/mL
CC(C)(C)NC(=O)C1c2ccccc2CCN1c1cc2c(cc1F)c(=O)c(C(=O)O)c1n2CS1,agar,,,H37Rv,,MIC,,3.24 µM
CC(=O)C(CC(=O)Nc1cccc(Cl)c1)C(=O)Nc1cccc2ccccc12,,,,H37Rv,5 µg/mL,inhibition,,0%
Cc1cccc(NCC(=O)Sc2nnc(-c3ccncc3)o2)c1,BACTEC / radiometric,,,H37Rv (ATCC 27294),0.1138 µM,inhibition,,62%
Cc1onc(-c2c(F)cccc2F)c1C(=O)N1CCN(c2cc3c(cc2[N+](=O)[O-])c(=O)c(C(=O)O)c2n3CS2)CC1,agar,,,H37Rv,,MIC,,5.36 µM
Nc1ccc(-c2nnc(Nc3ccc(F)cc3)s2)cc1,BACTEC,,,H37Rv,6.25 µg/mL,inhibition,,57%
O=C(O)c1c2n(c3cc(N4CCC5(CC4)OCCO5)c(F)cc3c1=O)CS2,agar,,,H37Rv,,MIC,,0.99 µM
O=C1NC(NNC(=O)c2ccncc2)=N/C1=C\c1ccccc1Cl,resazurin,,VERO,H37Rv,,EC50,,<12.5 µg/mL
CC(=O)N[C@H]1CN(c2ccc(N3C=NN(C4=NC(=O)CS4)CC3)c(F)c2)C(=O)O1,GFP / reporter gene,,,H37Rv,,MIC,,250 µg/mL
NNC(=O)c1ccncc1,,,,92-0492 MDR (INH RIF-resistant),,MIC,,5 µg/mL
NNC(=O)c1ccccc1,,,,Mtb 352,,MIC,,1 µg/mL
CCCN(CCC)CCCOC(=O)c1ccc2oc3ccc(C(=O)OCCCN(CCC)CCC)cc3c2c1,BACTEC,,VERO,H37Rv,,MIC,,6.25 µg/mL
COc1ccc2cc(NCC(=O)NN)ccc2c1,,,,H37Rv,,EC50,,5 µg/mL
S=c1[nH][nH]c(=S)c2c1[nH]c(=S)n2Cc1ccccc1,BACTEC,,,H37Rv,6.25 µg/mL,inhibition,,13%
C=C(C)CC[C@H]1CN(c2ccn(N3CCOCC3)c2)C(=O)O1,,,,ATCC 27294,,MIC50,,>100 µM
COC(=O)NC[C@H]1CN(c2ccc(N3C=NOCC3)c(F)c2)C(=O)O1,GFP / reporter gene,,,H37Rv,,MIC,,250 µg/mL
COC(=O)Nc1nc2ccc(-c3c(C)oc(C)c3C(=O)O)cc2[nH]1,BACTEC,,,H37Rv,12.5 µg/mL,inhibition,,16%
CCOC(=O)c1ccc(NC(=O)C(CC(=O)Nc2cccc(Cl)c2)C(C)=O)cc1,,,,H37Rv,5 µg/mL,inhibition,,0%
N[C@@H]1CONC1=O,,,,90-0201 (drug-susceptible),,MIC,,50 µg/mL
C[C@@H]1[C@H](C)[C@@H](c2ccc(O)cc2)O[C@H]1c1ccc(O)cc1,resazurin,,,H37Rv,,MIC,,50 µg/mL
Cc1cccc(Cl)c1-n1sc(=O)n(CC2CC2)c1=O,broth dilution,,,H37Rv,,MIC,,12.5 µg/mL
CC(=O)N[C@H]1CN(c2ccc(N3C=NN(S(N)(=O)=O)CC3)c(F)c2)C(=O)O1,GFP / reporter gene,,,H37Rv,,MIC,,250 µg/mL
NC1=C(c2nc(-c3ccccc3)cs2)C(c2ccco2)c2c(c3ccccc3oc2=O)O1,BACTEC,,,H37Rv,,MIC bound,,>12.5 µg/mL
O=c1sn(-c2ccc([N+](=O)[O-])cc2Cl)c(=O)n1C1Cc2ccccc2C1,broth dilution,,,H37Rv,,MIC,,12.5 µg/mL
O=C1NC(NNC(=O)c2ccncc2)=N/C1=C\c1ccc(Cl)cc1,,,,ATCC 35838 (rifampin-resistant),,MIC,,6.25 µg/mL
O=C(CNc1ccccn1)Sc1nnc(-c2ccncc2)o1,broth dilution / resazurin,,,H37Rv (ATCC 27294),,MIC99,,5.77 µg/mL
CC1=Nc2cc(Cl)c(Cl)cc2N(C)/C1=C/C1=C(Cl)C(=O)c2cc3c(Cl)ccc(Cl)c3cc2C1=O,resazurin,,,H37Rv,6.25 µg/mL,inhibition,,50%
CCn1cc(C(=O)O)c(=O)c2ccc(C)nc21,,gyrA mutation S91P,,H37Rv,,MIC90,,>50 µM
CCOc1ccc(NC(=O)CC(C(C)=O)C(=O)Nc2cccc3ccccc23)cc1,,,,H37Rv,30 µg/mL,inhibition,,0%
O=C1c2ccccc2C(=CC=C2c3ccccc3Sc3ccccc32)c2ccccc21,BACTEC,,,H37Rv,,MIC bound,,>12.5 µg/mL
Cc1ccc(Nc2nnc(-c3ccc(N)cc3)s2)cc1,BACTEC,,,H37Rv,6.25 µg/mL,inhibition,,22%
COc1cc2occc2c2oc(=O)ccc12,resazurin,,,H37Ra,,EC50,,74.6 µg/mL
CC1=NC2=Nc3cc[n+](C4O[C@H](CO)[C@@H](O)[C@H]4O)c(=O)n3CC2=CN1C,BACTEC,,,H37Rv,12.5 µg/mL,inhibition,,5%
COC(=O)N[C@H]1CN(c2ccc(N3C=NN(C4=NC(=O)CS4)CC3)c(F)c2)C(=O)O1,GFP / reporter gene,,,H37Rv,,MIC,,125 µg/mL
CC(=O)C(CC(=O)Nc1ccc(Cl)cc1)C(=O)Nc1cccc2ccccc12,,,,H37Rv,5 µg/mL,inhibition,,0%
CC12Oc3ccc(Cl)cc3C1(C)c1cc(Cl)ccc1O2,BACTEC,,,H37Rv,12.5 µg/mL,inhibition,,3%
COC(=O)N[C@H]1CN(c2ccc(N3C=NN(C)CC3)c(F)c2)C(=O)O1,GFP / reporter gene,,,H37Rv,,MIC,,250 µg/mL
Cc1[nH]ccc(=O)c1OC(=O)C12CC3CC(CC(C3)C1)C2,BACTEC,,,H37Rv,,MIC,,≥12.5 µg/mL
COc1cc2ccc(=O)oc2c2ccoc12,resazurin,,,H37Ra,,EC50,,86.6 µg/mL
CO/N=C1\CN(c2nc3c(cc2F)c(=O)c(C(=O)O)cn3C2CC2)CC1CN,,,,45 strains (drug-susceptible),,MIC50,,4 µg/mL
O=C1c2ccccc2C(=O)c2c1sc1nc3ccccc3n21,,,VERO,H37Rv,,MIC,,0.2 µg/mL
CC[C@@H](CO)NCCN[C@@H](CC)CO,,,,90-0145 (drug-susceptible),,MIC,,1 µg/mL
CC(=O)/C(N=Nc1ccc(-c2nnc(Nc3ccc(C)cc3)s2)cc1)=C(\C)O,BACTEC,,,H37Rv,,MIC,,>6.25 µg/mL
Nc1nc(Cl)cc(NCCCCCCCCCCCCNc2cc(Cl)nc(N)n2)n1,BACTEC,,,H37Rv,,MIC bound,,≤12.5 µg/mL
CCOC(=O)c1ccc(NC(=O)C(CC(=O)Nc2ccccc2Cl)C(C)=O)cc1,,,,H37Rv,5 µg/mL,inhibition,,0%
CC(C)Nc1cc2c(cc1[N+](=O)[O-])c(=O)c(C(=O)O)cn2C(C)C,,,,ATCC 27294 (WT),,MIC50,,2 µM
O=C1CSC=NN1c1ccccc1,resazurin,,,H37Rv,,MIC bound,,>6.25 µg/mL
O=C(O)c1c2n(c3cc(N4CCSCC4)c([N+](=O)[O-])cc3c1=O)CS2,agar,,,H37Rv,,MIC,,4.12 µM
Cc1noc(C)c1-n1sc(=O)n(-c2ccc(F)cc2)c1=O,broth dilution,,,H37Rv,,MIC,,25 µg/mL
O=C(CNc1ccccc1O)Sc1nnc(-c2ccncc2)o1,BACTEC / radiometric,,,H37Rv (ATCC 27294),0.1184 µM,inhibition,,69%
CC[C@H]1OC(=O)[C@H](C)[C@@H](O[C@H]2C[C@@](C)(OC)[C@@H](O)[C@H](C)O2)[C@H](C)[C@@H](O[C@@H]2O[C@H](C)C[C@H](N(C)C)[C@H]2O)[C@](C)(OC)C[C@@H](C)C(=O)[C@H](C)[C@@H](O)[C@]1(C)O,,,,90-0201 (drug-susceptible),,MIC,,2 µg/mL
CCOC(=O)c1ccc(NC(=O)C(CC(=O)Nc2cccc3ccccc23)C(C)=O)cc1,,,,H37Rv,5 µg/mL,inhibition,,0%
S=C(S)n1nc(-c2ccccc2)c(N=Nc2cccc(Cl)c2)c1-c1ccccc1,BACTEC,,,H37Rv,12.5 µg/mL,inhibition,,57%
NNC(=O)c1ccncc1,,,,NHN382,,MIC99,,1.6 µg/mL
Cc1noc(C)c1-n1sc(=O)n(CC2CC2)c1=O,broth dilution,,,H37Rv,,MIC,,25 µg/mL
COC(=O)C1=CN(c2ccc(C(=O)OC)cc2)C(=O)C1=[N+]=[N-],BACTEC,,,H37Rv,,MIC,,≥12.8 µg/mL
CC(=O)NC[C@H]1CN(c2ccc(N3C=NN(C(N)=O)CC3)c(F)c2)C(=O)O1,GFP / reporter gene,,,H37Rv,,MIC,,125 µg/mL
CN1C2CCC1[C@H](COC(=O)c1ccccc1)[C@@H](OC(=O)c1ccccc1)C2.Cl,BACTEC,,,H37Rv,128 µg/mL,inhibition,,99%
CCOC(=O)c1ccc(NC(=O)C(CC(=O)Nc2cccc(C)c2)C(C)=O)cc1,,,,H37Rv,5 µg/mL,inhibition,,0%
C[C@H]1[C@H](c2ccc(O)cc2)c2cc(O)c(O)cc2C[C@H]1C,resazurin,,,Clinical isolates,,MIC,multidrug-resistant,12.5 µg/mL
CC(=O)/C(N=Nc1ccc(-c2nnc(Nc3ccc(F)cc3)s2)cc1)=C(\C)O,BACTEC,,,H37Rv,6.25 µg/mL,inhibition,,0%
CCc1cc(C(N)=S)ccn1,,,,90-0233 (INH SM-RS),,MIC,,0.25 µg/mL
CCOC(=O)c1cn(CC)c2c(cc([N+](=O)[O-])c3cccnc32)c1=O,,gyrA mutation D94G gyrB mutation D500N,,H37Rv,,MIC90,,>50 µM
COc1ccc(CCC2CCc3ccccc3N2C)cc1OC,,,,MT4,,MIC,,>322 µg/mL
COc1ccccc1N(N=O)C(C)=O,BACTEC,,,H37Rv,,MIC,,≥12.5 µg/mL
CCCCCCc1ccc(Oc2ccccc2)c(O)c1,,,,HN335,,MIC99,,3.7 µg/mL
Cc1ncc(CO)c(/C=N/NC(=O)c2ccncc2)c1O,BACTEC,,,H37Rv,,MIC bound,,≤128 µg/mL
O=C(O)c1cn(C2CCCC2)c2cc(NC3CCCC3)c([N+](=O)[O-])cc2c1=O,,,,ATCC 27294 (WT),,MIC50,,>200 µM

Rows are shuffled and stem from different studies. MIC bound comes from a single tested concentration. MIC50, MIC90 and the like: level of inhibition, or share of isolates inhibited. ECn is the concentration giving n% inhibition of infection, replication or growth. Blank or dashed fields: not listed here.